Pooled drug test results. Numbers come from NIAID ChemDB, via PubChem.

Common to all: growth or infection tests; species: Hepatitis B virus; endpoint: EC50

Rows are shuffled and stem from different studies. Two numbers with a dash give a range or band. An empty or dashed field is not shown. ECn: concentration that inhibits the pathogen or its effect by n%.

smiles | method | conditions | cell line | result
COc1ccc(-n2c(C(=O)N[C@H](c3ccccc3)C(F)(F)F)c3n(c2=O)CCN(C(=O)c2ccc(Br)c(Cl)c2)C3)cc1 | PCR | - | HepG2.117 | 0.1–0.5 µM
CNC(=O)c1ccc(-n2c(=O)c3c(n4ncc(Cc5ccccc5)c24)CN(C(=O)c2ccc(Br)c(Cl)c2)[C@@H](C)C3)cc1 | PCR | 3 d | HepG2.117 | <0.1 µM
Cn1nnc(-c2ccc(-n3c(=O)c4c(n5ncc(Cc6ccccc6)c35)CN(C(=O)c3ccc(Br)c(Cl)c3)CC4)cc2)n1 | luminescence | - | HepG2.117 | ≤0.05 µM
CCOC(=O)C1=C(CN2CC(F)(F)[C@H]3[C@@H]2CCN3C[C@@](C)(O)C(=O)O)NC(c2nc(C)cs2)=N[C@H]1c1cccc(F)c1C | PCR | - | HepG2.2.15 | 0.009 µM
Cc1nc(-c2ccc(-n3c(=O)c4c(n5ncc(CC(C)C)c35)CN(C(=O)c3ccc(Br)c(Cl)c3)[C@H](C)C4)cc2)n[nH]1 | luminescence | - | HepG2.117 | ≤0.05 µM
CCOC(=O)C1=C(CN2CC(F)(F)[C@H]3[C@@H]2CCN3C[C@](C)(F)C(=O)O)NC(c2nccs2)=N[C@H]1c1cccc(F)c1C | PCR | - | HepG2.2.15 | 0.0495 µM
COc1ccc(-n2c(C(=O)N[C@@H](c3ccccc3)C(F)(F)F)c3n(c2=O)CCN(C(=O)c2ccc(Br)c(Cl)c2)C3)cc1 | PCR | - | HepG2.117 | 0.1–0.5 µM
CCOC(=O)C1=C(CN2CC(F)(F)[C@H]3[C@@H]2CCN3CC[C@](C)(O)C(=O)O)NC(c2nccs2)=N[C@H]1c1ccc(F)c(F)c1F | PCR | - | HepG2.2.15 | 0.043 µM
CC(C)c1cnn2c3c(c(=O)n(-c4ccccc4)c12)CCN(C(=O)c1ccc(Br)c(Cl)c1)C3 | PCR | 3 d | HepG2.117 | 0.5–5 µM
C[C@H]1Cc2c(n3ncc(CC4CCC4)c3n(-c3ccc(-c4nncn4C)cc3)c2=O)CN1C(=O)c1ccc(Br)c(Cl)c1 | luminescence | - | HepG2.117 | 0.05–0.5 µM
COc1ccc(-n2c(C(=O)NCc3ccccc3)c3n(c2=O)CCN(C(=O)c2ccc(Cl)c(Cl)c2)C3)cn1 | PCR | - | HepG2.117 | >5 µM
CCOC(=O)C1=C(CN2CC(F)(F)[C@@H]3[C@H]2CON3CC[C@](C)(OC)C(=O)O)NC(c2nccs2)=N[C@H]1c1cccc(F)c1C | PCR | - | HepG2.2.15 | 0.1 µM
COc1cccc(-n2c(=O)c3c(n4ncc(NCc5ccccc5)c24)CN(C(=O)c2ccc(Br)c(Cl)c2)CC3)c1 | PCR | 3 d | HepG2.117 | 0.1–0.5 µM
CC[C@H]1Cc2c(n3ncc(Cc4ccccc4)c3n(-c3ccc4c(NC)n[nH]c4c3)c2=O)CN1C(=O)c1ccc(Br)c(C(F)(F)F)c1 | luminescence | - | HepG2.117 | ≤0.05 µM
CC(C)CN1CCCn2c(c3n(c2=O)CCN(C(=O)c2ccc(Br)c(Cl)c2)C3)C1=O | PCR | - | HepG2.117 | >5 µM
CNC(=O)c1ccc(-n2c(=O)c3c(n4ncc(Cc5ccccc5)c24)CN(C(=O)c2ccc(Br)c(Cl)c2)[C@H](C)C3)cc1 | PCR | 3 d | HepG2.117 | <0.1 µM
O=C(NCc1ccccc1)c1c2n(c(=O)n1-c1ccc(OC(F)(F)F)cc1)CCN(C(=O)c1ccc(Cl)c(Cl)c1)C2 | PCR | - | HepG2.117 | >5 µM
C[C@@H]1Cc2c(n3ncc(CC4CC4)c3n(-c3ccc(-c4nc(=O)on4C)cc3)c2=O)CN1C(=O)c1ccc(Br)c(C(F)(F)F)c1 | luminescence | - | HepG2.117 | ≤0.05 µM
CCOC(=O)C1=C(CN2CC(F)(F)[C@H]3[C@@H]2CCN3CC[C@@](C)(O)C(=O)O)NC(c2nccs2)=N[C@H]1c1cccc(F)c1C | PCR | - | HepG2.2.15 | 0.056 µM
COP(=O)(O)OCN(C)C(=O)c1ccc(-n2c(=O)c3c(n4ncc(CC5CC5)c24)CN(C(=O)c2ccc(Br)c(C(F)(F)F)c2)[C@@H](C)C3)cc1 | luminescence | - | HepG2.117 | >5 µM
CCOC(=O)C1=C(CN2CC(F)(F)[C@@H]3[C@H]2CON3C[C@@H](F)C(C)(C)C(=O)O)NC(c2nccs2)=N[C@H]1c1ccc(F)c(F)c1Cl | PCR | - | HepG2.2.15 | 0.002 µM
O=C(NCc1ccccc1-c1ccncn1)c1c2n(c(=O)n1-c1ccc(OC3CC3)cc1)CCN(C(=O)c1ccc(Br)c(Cl)c1)C2 | PCR | - | HepG2.117 | <0.1 µM
CCOC(=O)C1=C(CN2CC(F)(F)[C@H]3[C@@H]2CCN3CC[C@](C)(O)C(=O)O)NC(c2nccs2)=N[C@H]1c1cccc(F)c1C | PCR | - | HepG2.2.15 | 0.0405 µM
C[C@H]1Cc2c(n3ncc(CC4CCC4)c3n(-c3ccc(-c4n[nH]nc4N)cc3)c2=O)CN1C(=O)c1ccc(Br)c(C(F)(F)F)c1 | luminescence | - | HepG2.117 | 0.05–0.5 µM
CCOC(=O)C1=C(CN2CC(F)(F)[C@@H]3[C@H]2CON3C[C@H](OC(F)F)C(C)(C)C(=O)O)NC(c2nccs2)=N[C@H]1c1cccc(F)c1C | PCR | - | HepG2.2.15 | 0.023 µM
O=C(NCc1ccccc1-c1cocn1)c1c2n(c(=O)n1-c1ccc(OC3CC3)cc1)CCN(C(=O)c1ccc(Br)c(Cl)c1)C2 | PCR | - | HepG2.117 | <0.1 µM
Cc1nnc(-c2ccc(-n3c(=O)c4c(n5ncc(Cc6ccccc6)c35)CN(C(=O)c3ccc(Br)c(C(F)(F)F)c3)CC4)cc2)n1C | luminescence | - | HepG2.117 | ≤0.05 µM
O=C(NCc1ccccc1)c1c2n(c(=O)n1-c1ccccc1Cl)CCN(C(=O)c1ccc(Br)c(Cl)c1)C2 | PCR | - | HepG2.117 | 0.5–5 µM
Cc1ccn(-c2ccc(-n3c(=O)c4c(n5ncc(CC(C)C)c35)CN(C(=O)c3ccc(Br)c(C(F)(F)F)c3)[C@@H](C)C4)cc2)n1 | luminescence | - | HepG2.117 | 0.5–5 µM

A second listing of 2 rows from above:

smiles | method | conditions | cell line | result
O=C(NCc1ccccc1)c1c2n(c(=O)n1-c1ccc(OC(F)(F)F)cc1)CCN(C(=O)c1ccc(Cl)c(Cl)c1)C2 | PCR | - | HepG2.117 | >5 µM
Cn1nnc(-c2ccc(-n3c(=O)c4c(n5ncc(Cc6ccccc6)c35)CN(C(=O)c3ccc(Br)c(Cl)c3)CC4)cc2)n1 | luminescence | - | HepG2.117 | ≤0.05 µM